Assay results reported in publication PMC2886105, “Assay Strategies for the Discovery and Validation of Therapeutics Targeting Brugia pahangi Hsp90” (PLoS Neglected Tropical Diseases, 2010).

Columns and labels:
[1] = biological target: Brugia Hsp90 (Brugia pahangi, UniProt O61998); conditions: inhibition of cy3B-GA binding to Brugia Hsp90
[2] = system: adult B. pahangi; assay: Condition and activity of adult B. pahangi worms in vitro
[3] = system: B. pahangi Mf; assay: Mortality of purified B. pahangi Mf incubated in drug; conditions: day 7
[4] = system: adult female B. pahangi; assay: Mf output by adult female B. pahangi cultured in vitro with drug; conditions: GA at 1 µM; PU-H71 and PU-DZ8 at 5 and 10 µM; three-day period

CC(C)NCCCn1c(Cc2cc3c(cc2I)OCO3)nc2c(N)nc(F)nc21
potency fold lower than GA [1]: 8 fold
activity of adult worms ([2]; 5.0 µM): less of an effect
activity of adult worms ([2]; 10 µM): markedly less active
Mf dead ([3]; 5.0 µM): 50%
Mf dead ([3]; 10 µM): 95%
effect on Mf release [4]: profound effect
